Data on two compounds can be found in patent US11306344B2, “Spectral intensity ratio (SIR) analysis for rapid live microbial enumeration” (TACOUNT EXACT LTD., priority 2015, dated 2022).

Assay type in all cases: cell-based
Series [1] has as its system E. coli #8739. Nature of the series: Flow-Cytometry SIR and NVP of dye-stained bacteria.
Series [2] deals with E. coli. Nature of the series: Microscopy fluorescence imaging, gray level analysis of stained bacteria.
Series [3] concerns E. coli #8739. Description: Fluorimeter (spectrofluorimetry) spectra, SIR and NVP of dye-stained bacteria.

A unit is not stated for every read-out.

For the compound `CCCCN(CCCC)c1ccc(/C=C/c2cc[n+](CCC[N+](CC)(CC)CC)cc2)cc1.[Br-].[Br-]` [FM® 1-43, N-(3-Triethylammoniumpropyl)-4-(4-(Dibutylamino) Styryl) Pyridinium Dibromide], the results for the “mean fluorescence intensity I530” value in series [1] (heated inactivated bacteria) and in series [1] (live bacteria) were 457 and 42, respectively. Moreover, the results for the “mean fluorescence intensity I610” value in series [1] (heated inactivated bacteria) and in series [1] (live bacteria) were 4045 and 31, respectively. The “fluorescence intensity I, gray level per object” value in series [2] (Emission 600(50) nm, Chlorinated inactivated bacteria) is given as 135(±20) GL; in series [2] (Emission 600(50) nm, Ethanol 70% inactivated bacteria), 90(±10) GL; in series [2] (Emission 600(50) nm, Heated inactivated bacteria) it was 128(±20) GL; in series [2] (Emission 600(50) nm, UV-MP inactivated bacteria), 120(±20) GL; in series [2] (Excitation 470 nm, Emission 525(50) nm, Heated inactivated bacteria), 40(±10) GL; in series [2] (Excitation 470 nm, Emission 525(50) nm, Live bacteria), 35(±5) GL. Besides, the “fluorescence intensity I, gray level per object” value in series [2] (Excitation 470 nm, Emission 600(50) nm, Live bacteria) is 20-50 GL. The “fluorescence intensity increase, inactivated vs live” value in series [3] (at 530 nm) was 4 fold; in series [3] (at 610 nm) it was 20 fold. The maximum emission peak in series [3] (free dye in PBS, excitation 488 nm) was found to be 635 nm; in series [3] (inactivated bacteria (85° C.)), 595 nm; in series [3] (live bacteria), 560 nm.
`CCN(CC)c1ccc(C=CC=CC=Cc2cc[n+](CCC[N+](CC)(CC)CC)cc2)cc1.[Br-].[Br-]` [FM® 4-64, N-(3-Triethylammoniumpropyl)-4-(6-(4-(Diethylamino) Phenyl) Hexatrienyl) Pyridinium Dibromide]: the maximum emission peak in series [3] (chlorinated bacteria) came out at 760 nm; in series [3] (heated (85°, 15 min) bacteria), 740 nm; in series [3] (live bacteria) it was 690 nm.
